Measured values from several laboratories, pooled; numbers as filed in NIAID ChemDB.

Common to all: growth or infection tests; organism: Mycobacterium smegmatis; endpoint: MIC

Conditions beyond the fields shown may differ between rows. An empty or dashed field is not shown.

smiles | method | strain or isolate | result
CO[C@H]1/C=C/O[C@@]2(C)Oc3c(C)c(O)c4c(O)c(c(/C=N/N5CCN(C)CC5)c(O)c4c3C2=O)NC(=O)/C(C)=C\C=C\[C@H](C)[C@H](O)[C@@H](C)[C@@H](O)[C@@H](C)[C@H](OC(C)=O)[C@@H]1C | absorbance |  | 9.72 µM
CN(C)[C@@H]1C(=O)C(C(N)=O)=C(O)[C@@]2(O)C(=O)C3=C(O)c4c(O)cccc4[C@@](C)(O)[C@H]3C[C@@H]12 |  | MC^2 155 (CCCP) | 0.5 µg/mL
N#Cc1ccc(-c2c(/C=C/c3cn(-c4ccc(Cl)cc4)nc3-c3ccccc3)nc3sccn3c2=O)cc1 | colony count | mc2155 | 21 µg/mL
Cc1nc(-c2ccc(F)cc2)sc1-c1csc(-c2ccc(F)c(Cl)c2)n1 | absorbance |  | 54.71 µM
Cc1ccc(Nc2cc(=O)n3c(-c4cccc(N)c4)csc3n2)cc1 | broth dilution / visual reading |  | 800 µg/mL
CO[C@@H]1C[C@@H](C[C@H]2CC[C@H](C)[C@H]([C@@H](C)C(=O)O)O2)O[C@]2(O[C@](C)([C@H]3CC[C@@](C)([C@@H]4O[C@@H]([C@H]5O[C@@](O)(CO)[C@H](C)C[C@@H]5C)C[C@@H]4C)O3)C[C@H]2C)[C@@H]1C | resazurin | mc2155 | 2.5 µg/mL
CO[C@H]1/C=C/O[C@@]2(C)Oc3c(C)c(O)c4c(O)c(c(/C=N/N5CCN(C)CC5)c(O)c4c3C2=O)NC(=O)/C(C)=C\C=C\[C@H](C)[C@H](O)[C@@H](C)[C@@H](O)[C@@H](C)[C@H](OC(C)=O)[C@@H]1C | agar diffusion / agar | NCIM 5138 | 480 µg/mL
Cc1cccc(-c2nn(-c3ccccc3)cc2/C=C/c2nc3sccn3c(=O)c2-c2ccc(C(F)(F)F)cc2)c1 | colony count | mc2155 | 56 µg/mL
Cc1ccc(Nc2cc(=O)n3c(-c4cccc([N+](=O)[O-])c4)csc3n2)cc1S(=O)(=O)O | broth dilution / visual reading |  | >800 µg/mL
COc1ccccc1-c1nn(-c2ccccc2)cc1/C=C/c1nc2sccn2c(=O)c1-c1ccc(C#N)cc1 | colony count | mc2155 | 58 µg/mL
Cc1ccc(-c2nc(C)c(-c3csc(-c4ccc(Br)cc4)n3)s2)cc1 | absorbance |  | 80.81 µM
COc1ccc(-c2nn(-c3ccccc3)cc2C2C3=C(NC(C)(c4cc(O)ccc4Cl)NC3=O)Oc3c2c(C)nn3-c2ccccc2)cc1 | agar diffusion / agar | NCIM 5138 | 90 µg/mL
COc1cc2ccnc3c2c(c1O)N=CC3=N | MTT / low oxygen / turbidity | mc2155 | 1.5 µg/mL
CCCCCCCCCCCCCCCC[N+](C)(C)CC |  | PMN1 LFR (CCCP) | 8 µg/mL
CC(C)(C)c1cnc(C(=O)/C=C/c2ccccc2F)cn1 | absorbance | CCM | >500 µg/mL
NCC[C@H](O)C(=O)N[C@@H]1C[C@H](N)[C@@H](O[C@H]2O[C@H](CN)[C@@H](O)[C@H](O)[C@H]2O)[C@H](O)[C@H]1O[C@H]1O[C@H](CO)[C@@H](O)[C@H](N)[C@H]1O |  | A9826 | 0.25 µg/mL
Cc1nn(-c2ccccc2)c2c1C(c1cn(-c3ccccc3)nc1-c1ccc(Cl)cc1)C1=C(NC(C)(c3cc(O)c(I)cc3Cl)NC1=O)O2 | agar diffusion / agar | NCIM 5138 | 70 µg/mL
COC1=Cc2ccnc3ccnc(c23)C1(OC)OC | MTT / low oxygen / turbidity | mc2155 | 100 µg/mL
O=C(/C=C/c1ccccc1Br)c1cnccn1 | absorbance | CCM | 15.6 µg/mL
Cc1nc(-c2ccc(Cl)cc2)sc1-c1csc(-c2ccc(Cl)cc2)n1 | absorbance |  | 74.86 µM
O=C(/C=C/c1ccc(F)cc1)c1cnccn1 | absorbance | CCM | 15.6 µg/mL
Cc1ccc(Nc2cc(=O)n3c(-c4cccc([N+](=O)[O-])c4)csc3n2)cc1 | broth dilution / visual reading |  | >800 µg/mL
COc1cccc(-c2nn(-c3ccccc3)cc2/C=C/c2nc3sccn3c(=O)c2-c2ccc(C(F)(F)F)cc2)c1 | colony count | mc2155 | 47 µg/mL
CC(C)(C)c1cnc(C(=O)/C=C/c2ccc(Cl)cc2)cn1 | absorbance | CCM | >250 µg/mL
Cc1nc(-c2ccccc2)sc1-c1csc(Cc2ccccc2)n1 | absorbance |  | >100 µM
CNc1ccc2oc(C[C@@H]3OC4(CC[C@@H]3C)O[C@H](C(C)C(=O)c3ccc[nH]3)[C@H](C)C[C@H]4C)nc2c1C(=O)O | resazurin | mc2155 | 0.31 µg/mL
Cc1ccc2[nH]c3c(C)c4cc[n+](C)cc4c(C)c3c2c1 | resazurin / fluorescence |  | 1.4 µg/mL
CCCc1cnc(C(=O)/C=C/c2ccc(Cl)cc2)cn1 | absorbance | CCM | >500 µg/mL
Cc1nc(-c2ccc(F)cc2)sc1-c1csc(-c2ccccc2)n1 | absorbance |  | >100 µM
Cc1nn(-c2ccccc2)c2c1C(c1cn(-c3ccccc3)nc1-c1ccc(F)cc1)C1=C(NC(C)(c3cc(O)cc(O)c3)NC1=O)O2 | agar diffusion / agar | NCIM 5138 | 40 µg/mL
Cc1nc(-c2ccccc2)sc1-c1csc(-c2cccc(Cl)c2)n1 | absorbance |  | 69.02 µM
Cc1ccc(Nc2cc(=O)n3c(-c4ccc([N+](=O)[O-])cc4)csc3n2)cc1S(=O)(=O)O | broth dilution / visual reading |  | >800 µg/mL
CN=C1C=Nc2c(O)c(OC)cc3ccnc1c23 | MTT / low oxygen / turbidity | mc2155 | 1.5 µg/mL

Repeating the final 2 entries:

smiles | method | strain or isolate | result
Cc1ccc(Nc2cc(=O)n3c(-c4ccc([N+](=O)[O-])cc4)csc3n2)cc1S(=O)(=O)O | broth dilution / visual reading |  | >800 µg/mL
CN=C1C=Nc2c(O)c(OC)cc3ccnc1c23 | MTT / low oxygen / turbidity | mc2155 | 1.5 µg/mL